Anti-infective test results gathered from many reports (values: NIAID ChemDB through PubChem).

Shared fields: tests in culture; organism: Parainfluenza virus; measure: EC50

ECn is the concentration giving n% inhibition of infection, replication or growth. Rows are shuffled and stem from different studies. An empty or dashed field is not shown.

compound | strain or isolate | method | cells | value
CCOC(=O)C1=CN(COCCOC(C)=O)S(=O)(=O)N=C1N | TYPE 3 |  | VERO | >400 µg/mL
CCOC(=O)Sc1nnc(-c2cn(-c3ccccc3)nc2-c2ccccc2)n1N | TYPE 3 | cytopathic effect | VERO | >80 µg/mL
N#CC1=CN(COCCO)S(=O)(=O)N=C1N | TYPE 3 |  | VERO | >400 µg/mL
COC(=O)[C@]1(C)CCC[C@]2(C)c3cc4cc[nH]c4cc3CCC12 | TYPE 3 | plaque count | VERO | >4 µg/mL
Nc1ncnc2c1cnn2Cc1cn(CCCCO)nn1 | TYPE 3 |  | VERO | >400 µg/mL
COC(=O)[C@]1(C)CCC[C@]2(C)c3cc(Br)c4[nH]ccc4c3CCC12 | TYPE 3 | plaque count | VERO | >4 µg/mL
Nc1ncnc2c1ncn2[C@@H]1C[C@H](CO)[C@@H](O)[C@H]1O | TYPE 1 | cytopathic effect | VERO | 2 µg/mL
CC(=O)OCCOCN1C=CC(=O)N(COCCOC(C)=O)S1(=O)=O | TYPE 3 |  | VERO | >400 µg/mL
CCOC(=O)C1Sc2nnc(-c3cn(-c4ccccc4)nc3-c3ccccc3)n2NC1=O | TYPE 3 | cytopathic effect | VERO | >16 µg/mL
CC=NC(=N)c1nc(-c2ccc(OC)cc2)n(COCCO)n1 | TYPE 3 | cytopathic effect | VERO | 100 µg/mL
O=C1CSc2nnc(-c3cn(-c4ccccc4)nc3-c3ccccc3)n2N1 | TYPE 3 | cytopathic effect | VERO | >16 µg/mL
N#Cc1cc(C#N)c2[nH]c3ccccc3n2c1=O | C243 (TYPE 3) | plaque count | VERO | 5.2 µg/mL
Nc1ncnc2c1ncn2C1CC(COP(=O)(O)O)[C@@H](O)[C@H]1O | TYPE 1 | cytopathic effect | VERO | 2 µg/mL
CC(=O)Nn1c(-c2cn(-c3ccccc3)nc2-c2ccccc2)n[nH]c1=S | TYPE 3 | cytopathic effect | VERO | >80 µg/mL
OCCCCn1cc(Cn2ncc3c(SCc4ccccc4)ncnc32)nn1 | TYPE 3 |  | VERO | >400 µg/mL
COC(=O)[C@]1(C)CCC[C@]2(C)c3ccc4[nH]cnc4c3CCC12 | TYPE 3 | plaque count | VERO | >4 µg/mL
Cc1cn([C@@H]2C=C(CCO)[C@@H](O)[C@H]2O)c(=O)[nH]c1=O | TYPE 3 | plaque count | VERO | >25 µg/mL
N#Cc1cc(NC(=O)c2ccccc2)c(=O)n2c1[nH]c1ccccc12 | TYPE 3 | plaque count | VERO | 0.3 µg/mL
CC(=O)OCCOCN1C(C)=CC(N)=[N+](c2ccccc2)S1(=O)=O | TYPE 3 |  | VERO | >400 µg/mL
CC=NC(=N)c1nc(-c2cccc(C)c2)n(COCCO)n1 | TYPE 3 | cytopathic effect | VERO | 70 µg/mL
Nc1ccn([C@@H]2C=C(CCO)[C@@H](O)[C@H]2O)c(=O)n1 | TYPE 3 | plaque count | VERO | >25 µg/mL
CC(C)Oc1ccccc1NC(=O)Nc1ccc2cnccc2n1 |  | plaque count |  | >30 µg/mL
CCOC(=O)c1cc(C#N)c2[nH]c3ccccc3n2c1=O | TYPE 3 | plaque count | VERO | 150 µg/mL
C=C(N=CC)c1nc(-c2ccc(OC)cc2)n(C2O[C@H](CO)[C@@H](O)[C@H](O)[C@H]2O)n1 | TYPE 3 | cytopathic effect | VERO | >200 µg/mL
NC1=CC(N)=NS(=O)(=O)N1COCCO | TYPE 3 |  | VERO | >400 µg/mL
CC=NC(=N)c1nc(-c2cccc(OC)c2)n(Cc2ccccc2)n1 | TYPE 3 | cytopathic effect | VERO | >10 µg/mL
COc1ncnc2c1cnn2Cc1cn(CCCCO)nn1 | TYPE 3 |  | VERO | 240 µg/mL

Again, the opening 3 rows:

{"compound": "CCOC(=O)C1=CN(COCCOC(C)=O)S(=O)(=O)N=C1N", "strain or isolate": "TYPE 3", "cells": "VERO", "value": ">400 µg/mL"}
{"compound": "CCOC(=O)Sc1nnc(-c2cn(-c3ccccc3)nc2-c2ccccc2)n1N", "strain or isolate": "TYPE 3", "method": "cytopathic effect", "cells": "VERO", "value": ">80 µg/mL"}
{"compound": "N#CC1=CN(COCCO)S(=O)(=O)N=C1N", "strain or isolate": "TYPE 3", "cells": "VERO", "value": ">400 µg/mL"}